Measured values from several laboratories, pooled; numbers as filed in NIAID ChemDB.

Common to all: growth or infection tests; organism: HIV-2; measure: EC50

Blank or dashed fields: not listed here. Neighbouring rows are from separate reports. ECn is the concentration giving n% inhibition of infection, replication or growth.

| SMILES | strain | cells | result |
|---|---|---|---|
| CCCC[C@H](NP(=O)(OC[C@@H]1C=C[C@H](n2cc(C)c(=O)[nH]c2=O)O1)Oc1ccccc1)C(=O)OC | - | CEM | 0.69 µM |
| CSCCC(NS(=O)(=O)c1ccc(C)cc1)c1nnc(SCc2ccc(Br)cc2)o1 | ROD | MT-4 | >11.8 µg/mL |
| Cc1cn([C@@H]2O[C@@H]3CN[C@@]4(O)CS(=O)(=O)O[C@@]34[C@H]2O[Si](C)(C)C(C)(C)C)c(=O)[nH]c1=O | ROD | CEM | >250 µM |
| Cc1ccc(S(=O)(=O)NC(C)c2nnc(SCc3ccccc3)o2)cc1 | ROD | MT-4 | >59.58 µg/mL |
| CC(=O)OC[C@H]1O[C@@H](n2cc(C)c(=O)n(C)c2=O)[C@H](O[Si](C)(C)C(C)(C)C)C12OS(=O)(=O)C=C2N | - | MT-4 | >50 µM |
| CCO[C@]12CS(=O)(=O)O[C@@]13C(CN2)O[C@@H](n1cc(C)c(=O)[nH]c1=O)[C@@H]3O[Si](C)(C)C(C)(C)C | ROD | MT-4 | >10 µM |
| COC(=O)[C@H](C)NP(=O)(OC[C@H]1O[C@@H](n2cc(C)c(=O)[nH]c2=O)C[C@@H]1N=[N+]=[N-])Oc1ccccc1 | ROD | CEM + CEM/0 | 0.07 µM |
| CC(NS(=O)(=O)c1ccc(Cl)cc1)c1nnc(SCc2ccc(Br)cc2)o1 | ROD | MT-4 | >12.33 µg/mL |
| CCCC(CCC)(NP(=O)(OC[C@@H]1C=C[C@H](n2cc(C)c(=O)[nH]c2=O)O1)Oc1ccccc1)C(=O)OC | - | CEM | 50 µM |
| Cc1cn([C@@H]2O[C@@H]3CN[C@@]4(OCCO)CS(=O)(=O)O[C@@]34[C@H]2O)c(=O)[nH]c1=O | ROD | MT-4 | >250 µM |
| CCC[C@H](NP(=O)(OC[C@@H]1C=C[C@H](n2cc(C)c(=O)[nH]c2=O)O1)Oc1ccccc1)C(=O)OC | - | CEM + CEM TK- | 0.4 µM |
| Cc1ccc(S(=O)(=O)NC(C)c2nnc(SCc3ccc(F)cc3)o2)cc1 | ROD | MT-4 | >70.8 µg/mL |
| CC(=O)Oc1ccccc1COP(=O)(OCc1ccccc1OC(C)=O)OC[C@@H]1C=C[C@H](n2cc(C)c(=O)[nH]c2=O)O1 | - | CEM + CEM TK- | 0.48 µM |
| C=CCOC(=O)OC[C@H]1O[C@@H](n2cc(C)c(=O)n(C)c2=O)[C@H](O[Si](C)(C)C(C)(C)C)C12OS(=O)(=O)C=C2N | - | CEM + CEM/0 | >10 µM |
| Cc1ccc(S(=O)(=O)NC(Cc2ccccc2)c2nnc(SCc3ccc(Cl)cc3)o2)cc1 | ROD | MT-4 | >99.4 µg/mL |
| CCCOC12CS(=O)(=O)OC13[C@@H](CN2)O[C@@H](n1cc(C)c(=O)[nH]c1=O)[C@@H]3O[Si](C)(C)C(C)(C)C | ROD | MT-4 | >10 µM |
| Cc1cn([C@@H]2O[C@H](COS(=O)(=O)c3ccccc3)C3(OS(=O)(=O)C=C3N)[C@H]2O[Si](C)(C)C(C)(C)C)c(=O)n(C)c1=O | - | MT-4 | ≥30 µM |
| COC(=O)[C@H](C)NP(=O)(OC[C@@H]1C=C[C@H](n2cc(C)c(=O)[nH]c2=O)O1)Oc1ccccc1 | ROD | CEM + CEM TK- | 0.075 µM |
| C=CCOC[C@H]1O[C@@H](n2cc(C)c(=O)n(C)c2=O)[C@H](O[Si](C)(C)C(C)(C)C)C12OS(=O)(=O)C=C2N | - | CEM + CEM/0 | 43.3 µM |
| COC(=O)CNP(=O)(OC[C@@H]1C=C[C@H](n2cc(C)c(=O)[nH]c2=O)O1)Oc1ccccc1 | - | CEM | 6 µM |
| Cc1cn([C@@H]2O[C@H](COC(=O)c3ccccc3)C3(OS(=O)(=O)C=C3N)[C@H]2O[Si](C)(C)C(C)(C)C)c(=O)n(C)c1=O | - | MT-4 | >15 µM |
| CC(NS(=O)(=O)c1ccc(Cl)cc1)c1nnc(SCc2ccc(F)cc2)o1 | ROD | MT-4 | >58.75 µg/mL |
| Cc1cn([C@H]2C=C[C@@H](CO)O2)c(=O)[nH]c1=O | - | CEM + CEM TK- | >10 µM |
| Cc1cn([C@@H]2O[C@H](COC(=S)N(C)C)C3(OS(=O)(=O)C=C3N)[C@H]2O[Si](C)(C)C(C)(C)C)c(=O)n(C)c1=O | - | MT-4 | >10 µM |

The first 3 rows once more:

SMILES | strain | cells | result
CCCC[C@H](NP(=O)(OC[C@@H]1C=C[C@H](n2cc(C)c(=O)[nH]c2=O)O1)Oc1ccccc1)C(=O)OC | - | CEM | 0.69 µM
CSCCC(NS(=O)(=O)c1ccc(C)cc1)c1nnc(SCc2ccc(Br)cc2)o1 | ROD | MT-4 | >11.8 µg/mL
Cc1cn([C@@H]2O[C@@H]3CN[C@@]4(O)CS(=O)(=O)O[C@@]34[C@H]2O[Si](C)(C)C(C)(C)C)c(=O)[nH]c1=O | ROD | CEM | >250 µM